Assays:
Type in all cases: cell-based
Details in all cases: CC50/EC50
[1] = tested on: HCV replicon, H/FL-Neo, a genotype 1a full length construct; experiment: Secondary HCV replicon assay, genotype 1A, antiviral activity
Description: (§1) Antiviral activity of test compounds was assessed in a 3-day assay using the stably-expressing HCV replicon cell line, AVA5 (sub-genomic CON1, genotype 1b) [Korba, B. E. et al. Antiviral Res. 77, 56-63 (2008); Blight et al., Science 290, 1972-1974 (2000)] maintained as sub-confluent cultures on 96-well plates as previously described [Okuse et al., Antiviral Research 65, 23-34 (2005)]. Antiviral activity was determined by blot hybridization analysis of intracellular HCV RNA (normalized to the level of cellular B-actin RNA in each culture sample) and cytotoxicity was assessed by neutral red dye uptake after 3 days of treatment. Additional studies were performed using Huh7 cells containing another HCV replicon, H/FL-Neo, a genotype 1a full length construct [Blight et al., J. Virol. 77, 3181-3190 (2003)]. For studies involving human serum, standard culture medium (which contains 10% fetal bovine serum) and assay conditions were maintained.
(§2) EC50, EC90 and CC50 values (±standard deviations [S.D.]) were calculated by linear regression analysis using data combined from all treated cultures (Korba, B. E. et al. Antiviral Res. 77, 56-63 (2008)). […] Selectivity index (S.I.) was calculated as CC50/EC90 for HBV assays and CC50/EC50 for HCV assays.

[2] = tested on: HCV replicon cell line, AVA5 (sub-genomic CON1, genotype 1b); experiment: Secondary HCV replicon assay, genotype 1B, antiviral activity
Description: as §1, §2

[3] = tested on: HCV replicon cell line, AVA5 (sub-genomic CON1, genotype 1b); experiment: Primary HCV replicon assay, antiviral activity (intracellular HCV RNA)
Description: as §1, §2

Row | SMILES | SI [1] | SI [2] | SI [3]
1 | O=C(Nc1ncc([N+](=O)[O-])s1)c1ccccc1O [TIZ, Tizoxanide] | 119.0 | 142.0 | 100.0
2 | CC(=O)Oc1ccccc1C(=O)Nc1ncc([N+](=O)[O-])s1 [NTZ, Nitazoxanide] | 149.0 | 143.0 | 148.0
3 | CS(=O)(=O)c1cnc(NC(=O)c2ccccc2O)s1 [RM4863] | > 12.3 | > 11.1 | 29.0
4 | C[S+]([O-])c1csc(NC(=O)c2ccccc2O)n1 (stereo not drawn) [Compound 2, 2-hydroxy-N-(4-(methylsulfinyl)thiazol-2-yl)benzamide] | > 35.7 | > 45.5 | 32.0

Reference: patent publication US8772502B2, “Alkylsulfinyl-substituted thiazolide compounds” (Romark Laboratories, L.C., priority 2010, dated 2014)
